Here are results for 3 molecules from patent US6525021B1 (priority 1998, dated 2003).

Chains of the proteins cited; added tags and fusions are not shown. Lines headed by an entry give the natural chain unless they say otherwise; changes in a name come on top. Residues count along the entry.
UniProt P20789, whole entry, looked up: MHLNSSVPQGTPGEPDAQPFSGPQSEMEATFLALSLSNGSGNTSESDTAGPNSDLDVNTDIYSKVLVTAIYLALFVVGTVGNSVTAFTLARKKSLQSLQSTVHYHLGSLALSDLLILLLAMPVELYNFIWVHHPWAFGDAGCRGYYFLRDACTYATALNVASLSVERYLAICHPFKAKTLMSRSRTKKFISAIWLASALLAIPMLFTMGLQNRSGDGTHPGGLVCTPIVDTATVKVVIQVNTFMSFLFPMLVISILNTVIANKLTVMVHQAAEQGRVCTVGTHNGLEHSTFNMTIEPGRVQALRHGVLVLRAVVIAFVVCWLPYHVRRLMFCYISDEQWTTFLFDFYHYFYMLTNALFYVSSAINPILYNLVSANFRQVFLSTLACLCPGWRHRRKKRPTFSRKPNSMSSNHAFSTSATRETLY
UniProt Q63384: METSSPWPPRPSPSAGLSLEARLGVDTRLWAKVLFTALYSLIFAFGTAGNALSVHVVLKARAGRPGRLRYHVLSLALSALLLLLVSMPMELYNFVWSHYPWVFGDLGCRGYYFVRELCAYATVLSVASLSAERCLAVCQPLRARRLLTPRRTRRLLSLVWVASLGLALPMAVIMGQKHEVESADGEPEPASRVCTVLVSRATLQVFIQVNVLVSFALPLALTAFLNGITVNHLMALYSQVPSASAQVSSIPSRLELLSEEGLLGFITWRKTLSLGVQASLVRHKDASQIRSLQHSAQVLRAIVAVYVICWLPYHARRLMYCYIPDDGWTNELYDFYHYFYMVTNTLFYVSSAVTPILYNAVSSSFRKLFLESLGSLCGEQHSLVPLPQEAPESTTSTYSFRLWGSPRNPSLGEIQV
UniProt Q6PHU5, 74-825 limits assumed: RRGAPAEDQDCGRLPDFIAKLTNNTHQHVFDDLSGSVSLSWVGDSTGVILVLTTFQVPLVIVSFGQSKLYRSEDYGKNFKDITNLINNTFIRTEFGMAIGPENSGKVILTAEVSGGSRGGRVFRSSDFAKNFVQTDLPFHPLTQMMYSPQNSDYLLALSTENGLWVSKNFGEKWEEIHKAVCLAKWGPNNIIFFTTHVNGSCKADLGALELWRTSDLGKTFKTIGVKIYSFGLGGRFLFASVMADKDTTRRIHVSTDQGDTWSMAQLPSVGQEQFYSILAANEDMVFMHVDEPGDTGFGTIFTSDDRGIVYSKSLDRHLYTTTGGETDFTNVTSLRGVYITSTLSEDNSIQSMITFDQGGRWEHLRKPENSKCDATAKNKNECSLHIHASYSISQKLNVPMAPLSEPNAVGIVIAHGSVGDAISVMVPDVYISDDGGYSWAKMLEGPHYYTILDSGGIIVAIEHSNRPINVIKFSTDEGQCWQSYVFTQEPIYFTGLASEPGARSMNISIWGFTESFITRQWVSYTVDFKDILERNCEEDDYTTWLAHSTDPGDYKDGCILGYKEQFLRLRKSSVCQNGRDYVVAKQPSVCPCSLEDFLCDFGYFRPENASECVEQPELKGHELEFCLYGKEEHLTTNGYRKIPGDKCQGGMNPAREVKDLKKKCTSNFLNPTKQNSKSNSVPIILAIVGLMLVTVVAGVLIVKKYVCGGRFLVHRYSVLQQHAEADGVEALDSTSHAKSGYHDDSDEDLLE

Series [1] can be described thus: biological activity of contulakin-G analogs by icv injection in mice. The class given is in vivo.
Series [2] concerns the target rat neurotensin type 1 receptor (rNTR1) (Rattus norvegicus, UniProt P20789). As to the kind of experiment: competition binding with [125I-Tyr3]neurotensin1-13, CHO cell membranes. The conditions noted are these: read-out: IC50 rNTR1; 0.4 nM [125I-Tyr3]neurotensin1-13, CHO membranes.
In series [3] the target is rat neurotensin type 2 receptor (rNTR2) (Rattus norvegicus, UniProt Q63384). The description is as above. As to conditions: read-out: IC50 rNTR2; 0.4 nM [125I-Tyr3]neurotensin1-13, CHO membranes.
In series [4] the target is solubilized mouse neurotensin type 3 receptor (mNTR3) (Mus musculus, UniProt Q6PHU5). As to the kind of experiment: binding on CHAPS-solubilized mouse brain extracts. The conditions noted are these: read-out: IC50 mNTR3, 0.2 nM radioligand.
Series [5] has as its target rNTR1 (Rattus norvegicus, UniProt P20789). As to the kind of experiment: phosphoinositides determination (IP accumulation), CHO cells expressing rNTR1. The class given is cell-based.
Series [6] is described as follows: acute pain (hotplate), icv.
Series [7] can be described thus: acute pain (tail-flick), intrathecal. The conditions noted are these: i.t.; for tail-flick (withdrawal) latency: 54 C water bath.
A short description of series [8]: accelerating rotarod before hotplate, icv. The conditions noted are these: 10 fmol-10 nmol.
A short description of series [9]: audiogenic seizures in Frings mice, i.c.v. The conditions noted are these: for X more potent than NT / ED50, audiogenic seizures / P.I. (Protective index = TD50/ED50) / block of audiogenic seizures: i.c.v.; for X more potent than NT / ED50, audiogenic seizures / P.I. (Protective index = TD50/ED50): Frings AGS mice; for ED50, audiogenic seizures: 60 min; for block of audiogenic seizures: Frings mice.

Series [10] can be described thus: persistent pain (formalin test), intrathecal. As to conditions: for ED50, Formalin Test (phase 2): estimated.
The nature of series [11]: chronic inflammatory allodynia (CFA model), von Frey. As to conditions: for ED50, CFA-Induced Allodynia Test: estimated.
Series [12] in a line: toxicity testing: rectal temperature, i.t. (hypothermia). As to conditions: for time of maximal hypothermic effects post i.t. injection / doses causing hypothermia, as multiple of ED50 / TD50 for hypothermic effect: i.t.; for doses causing hypothermia, as multiple of ED50: FIG. 16; for TD50 for hypothermic effect: estimated.
Series [13] can be described thus: toxicity testing: accelerating rotorod, i.t. (motor impairment). (In the rotarod test animals must keep their balance on a rotating rod.)
The nature of series [14]: neuropathic pain (partial sciatic nerve ligation), von Frey mechanical allodynia.
Series [15] can be described thus: proteolytic degradation (preliminary data). The conditions noted are these: compared with non-glycosylated analog.
The nature of series [16]: D-amphetamine-stimulated locomotor activity.
The nature of series [17]: rotorod test of motor impairment in Frings mice, i.c.v. The conditions noted are these: Frings AGS mice, 15 min, listed as CGX-1160.
[18] abbreviates: animal models of acute and chronic pain.

Take “Ser10-contulakin-G containing the native glycosylation on Ser10”: the “activity compared with native contulakin-G” value in series [1] (icv, mice) is recorded as “slightly more active”. For the same molecule, the “time mice were drowsy” value in [1] (three week old mice, 1 nmole and 300 pmole icv) turned out to be 100 min.

On to `CC[C@H](C)[C@H](NC(=O)[C@H](Cc1ccc(O)cc1)NC(=O)[C@@H]1CCCN1C(=O)[C@H](CCCCN)NC(=O)[C@H](CCCCN)NC(=O)[C@@H](NC(=O)[C@H](C)NC(=O)[C@H](CC(N)=O)NC(=O)[C@H](CO)NC(=O)CNC(=O)CNC(=O)[C@H](CCC(=O)O)NC(=O)[C@H](CCC(=O)O)NC(=O)[C@H](CO)NC(=O)[C@@H]1CCC(=O)N1)[C@@H](C)O)C(=O)N[C@@H](CC(C)C)C(=O)O` [Thr10-contulakin-G], for which, in series [2], the IC50 (as a rule, the point on the concentration scale where inhibition reaches its midpoint) stood at 79 nM. Besides, the concentration for half-maximal inhibition (IC50) in [3] is 170 nM. Besides, the IC50 in series [4] stood at 71 nM. For the same molecule, the “mode of action on CHO cells expressing the rNTR1” value in series [5] was “acted as agonists”. For the same molecule, the EC50 in series [5] (read-out: agonist potency, CHO cells expressing rNTR1) turned out to be 0.6 nM. Further, in series [6], the “effective dose range in hot plate model” value is “low picomole to high femtomole range”. For the same molecule, in [6] (10 fmol-10 nmol), the “latency to first response on hotplate” value is reported as “dose-dependently increased” and the “latency to the first hindpaw lick on hotplate” value is given as “dose-dependently increased”. The “tail-flick (withdrawal) latency” value in [7] is “dose-dependent, though more variable increase”. Further, the “latency to first fall on the rotarod” value in [8] is reported as “dose-dependently decreased”. For the same molecule, in [9], the “X more potent than NT” value is “≈37”; the “ED50, audiogenic seizures” value came out at 27.0 pmol; the “block of audiogenic seizures” value is “potently and dose-dependently blocked”. Further, in series [9] (listed as CGX-1063), the “P.I. (Protective index = TD50/ED50)” value is 14 and ≈14. For the same molecule, in series [10] (10 vs 100 pmol, it), the “first phase response time of the formalin test” value is recorded as “the lower dose (10 pmol) was more effective”. Also, in series [10] (i.t.), the “ED50 phase 1 of the formalin test” value was “did not reach the 50% antinociception threshold”; the “PI (TD50/ED50), Formalin Test (phase 2)” value was 1-2; the “ED50, Formalin Test (phase 2)” value was 10 to 20 pmol. Moreover, the “contralateral side relative to pre-drug baseline” value in [11] (10 pmol i.t.) is recorded as “also elevated”. For the same molecule, in series [11] (i.t.), the “PI (TD50/ED50), CFA-Induced Allodynia Test” value is 1-5; the “fold less potent than CGX-1160 in CFA model” value is “approximately 100 fold”; the “minimally effective dose, CFA-induced allodynia” value is 10 pmol; the “reversal of CFA-induced mechanical allodynia” value is recorded as “completely reversed”. Besides, the “ED50, CFA-Induced Allodynia Test” value in series [11] (i.t.) was <10 pmol. Also, in [12] (100 pmol i.t.), the “duration of drop in body temperature” value was 2 to 3 h. In addition, in [12], the “time of maximal hypothermic effects post i.t. injection” value came out at 30 min; the “doses causing hypothermia, as multiple of ED50” value stood at 10 fold; the “TD50 for hypothermic effect” value was 100 pmol. Besides, the “motor toxicity at the lowest dose tested” value in [13] (1 pmol i.t.) is on record as “no motor toxicity”. Also, the “duration of motor toxicity” value in [13] (10 pmol i.t., resolved by 60 minutes) stood at 30 min. Also, the “mechanical threshold on the contralateral side” value in [14] (100 pmol intrathecal) was “not significantly altered”. The “withdrawal threshold in sham-operated animals” value in series [14] (intrathecal, both hindpaws) is “uniformly increased in both hindpaws”.

As to `CC[C@H](C)[C@H](NC(=O)[C@H](Cc1ccc(O)cc1)NC(=O)[C@@H]1CCCN1C(=O)[C@H](CCCCN)NC(=O)[C@H](CCCCN)NC(=O)[C@@H](NC(=O)[C@H](C)NC(=O)[C@H](CC(N)=O)NC(=O)[C@H](CO)NC(=O)CNC(=O)CNC(=O)[C@H](CCC(=O)O)NC(=O)[C@H](CCC(=O)O)NC(=O)[C@H](CO)NC(=O)[C@@H]1CCC(=O)N1)[C@@H](C)O[C@H]1O[C@H](CO)[C@H](O)[C@H](O[C@@H]2O[C@H](CO)[C@H](O)[C@H](O)[C@H]2O)[C@H]1NC(C)=O)C(=O)N[C@@H](CC(C)C)C(=O)O` [contulakin-G], the “tail-flick (withdrawal) latency” value in series [7] was “dose-dependently increased”. Moreover, in series [7] (highest dose tested (100 pmol)), the “time post injection at which latency returned to baseline” value amounted to 24 h and the “withdrawal times at 5 hour post injection” value was “elevated”. Moreover, in series [7] (earliest time tested), the “time to peak effect in tail-flick” value was ≤ 30 min. The “activity against audiogenic seizures at 30 minutes” value in [9] (100 pmol i.c.v., 30 minutes) is on record as “no activity”. Moreover, in series [9] (100 pmol i.c.v., 60 minutes), the “protection against audiogenic seizures” value is reported as 100%. In addition, the “protection against audiogenic seizures” value in series [9] (100 pmol i.c.v., 4 hours) is listed as 50%. For the same molecule, in [9], the “P.I. (Protective index = TD50/ED50)” value was >28; the “X more potent than NT” value is “≈140”; the “ED50, audiogenic seizures” value is recorded as 7.1 pmol; the “block of audiogenic seizures” value was “potently and dose-dependently blocked”. In addition, the proteolytic degradation result in series [15] is listed as “inhibited by the presence of the glycan moiety”. For the same molecule, the “reduction in basal locomotor activity” value in series [16] (100 pmol i.c.v.) is on record as “did not reach statistical significance”. Moreover, the “amphetamine-stimulated increases in distance traveled and time spent ambulating” value in series [16] (100 pmol i.c.v. pretreatment, D-amphetamine 3 mg/kg i.p.) is listed as “significantly reduced”. Further, in series [10] (setting [18]), the “typical analgesic potency relative to CGX-1063” value turned out to be 10 fold and the “typical analgesic potency relative to NT” value was 1000 times. For the same molecule, in [10] (i.t.), the “ED50 phase 1 of the formalin test” value is 30 to 40 pmol; the “PI (TD50/ED50), Formalin Test (phase 2)” value is recorded as 10-20; the “potency relative to CGX-1063, formalin phase 2” value was found to be 10 times; the “potency relative to NT, formalin phase 2” value is recorded as 600-700 times. The “ED50, Formalin Test (phase 2)” value in [10] (i.t.) was 1 pmol. Moreover, the “contralateral sensitivity to mechanical pressure” value in [11] (100 fmol i.t.) was “unaltered”. In addition, in [11] (i.t.), the “PI (TD50/ED50), CFA-Induced Allodynia Test” value is recorded as >100; the “dose that completely reversed CFA-induced mechanical allodynia” value is recorded as 100 fmol; the “reversal of CFA-induced mechanical allodynia” value is “extremely potent and dose-dependent reversal”; the “ED50, CFA-Induced Allodynia Test” value was <0.1 pmol. In series [17], the “TD50, motor toxicity” value is reported as > 200 pmol. Moreover, the “time by which hypothermic effect resolved” value in series [12] (100 pmol i.t.) is ≤ 60 min. The “hypothermic effect at highest dose” value in series [12] (500 pmol i.t.) is “had not resolved by six hours post-injection”. Further, in [12], the “time of maximal hypothermic effects post i.t. injection” value came to 30 min; the “doses causing hypothermia, as multiple of ED50” value is reported as 100-500 fold; the “TD50 for hypothermic effect” value is 100 pmol.
